Pooled drug test results. Numbers come from NIAID ChemDB, via PubChem.

Shared fields: whole-cell or culture tests; species: HIV-1

Rows are shuffled and stem from different studies. ECn: concentration that inhibits the pathogen or its effect by n%. An empty or dashed field is not shown.

| smiles | method | mutations | strain or isolate | measure | cells | value |
|---|---|---|---|---|---|---|
| Cc1cn([C@H]2C[C@H](N=[N+]=[N-])[C@@H](CO)O2)c(=O)[nH]c1=O | p24 | RT-D67N K70R T215Y K219Q | LAI | EC50 | MT-2 | 0.14 µM |
| CC(C)=CCC[C@]1(C)C=Cc2c(ccc3c2C(=O)C(O)=C(C2=C(C4=C(O)C(=O)c5c(ccc6c5C=C[C@@](C)(CCC=C(C)C)O6)C4=O)C(=O)c4c(ccc5c4C=C[C@@](C)(CCC=C(C)C)O5)C2=O)C3=O)O1 | cytopathic effect | - | RF | EC50 | CEM + CEM-SS | <20 µM |
| Cc1cc(S(N)(=O)=O)ccc1NC(=O)COc1ccc(Cl)cc1NS(=O)(=O)c1ccccc1 | syncytia | - | IIIB | EC50 | C8166 | 2.01 µM |
| C#Cc1ccc(Nc2nccc(Oc3c(C)cc(-c4cn(Cc5ccc([N+](=O)[O-])cc5)nn4)cc3C)n2)cc1 | MTT | - | RES056 | EC50 | MT-4 | >160 µM |
| Cc1cn([C@H]2C[C@H](N=[N+]=[N-])[C@@H](COP(=O)(OCCSC(=O)C(C)(C)C)OCCSC(=O)C(C)(C)C)O2)c(=O)[nH]c1=O | RT activity | - | LAI | EC50 | CEM + CEM TK- | 0.011 µM |
| CO[P@](=O)(c1cc(C)cc(/C=C/C#N)c1)c1c(C(N)=O)[nH]c2ccc(Cl)cc12 | - | - | IIIB | EC50 | MT-4 | 0.0005 µM |
| CC(C)(C)NC(=O)[C@@H]1CN(Cc2cccnc2)CCN1C[C@@H](O)C[C@@H](Cc1ccccc1)C(=O)N[C@H]1c2ccccc2C[C@H]1O | p24 / ELISA | - | BaL | EC50 | PBMC | 0.029 µM |
| N#CCN1C(=O)N(Cc2ccccc2)S(=O)(=O)c2cscc21 | syncytia | - | IIIB | EC50 | MT-4 | 0.9 µM |
| C#Cc1ccc(Nc2nccc(Oc3c(C)cc(-c4cn(CC(=O)Nc5ccc(F)cc5)nn4)cc3C)n2)cc1 | MTT | Y181C | IIIB | EC50 | MT-4 | >1.41 µM |
| Nc1nc(Cl)nc2c1ncn2[C@@H]1C[C@@H](O)[C@H](CO)O1 | RT activity | - | - | EC50 | CEM + CEM-SS | >10 µM |
| Nc1nc(N)c2ncn([C@H]3CO[C@@H](CO)O3)c2n1 | p24 | RT-K65R | LAI | EC50 | MT-2 | 48.1 µM |
| C#Cc1ccc(Nc2nccc(Oc3c(C)cc(-c4cn(CC(=O)OC)nn4)cc3C)n2)cc1 | MTT | K103N | IIIB | EC50 | MT-4 | 6.64 µM |
| C[C@H](Cn1cnc2c(N)ncnc21)OCP(=O)(O)O | cytopathic effect / XTT | RT-K65R | Site-directed mutant | EC50 | MT-2 | 11.88 µM |
| CCCCN1C(=O)[C@@H]([C@H](O)C2CCCCC2)NC(=O)C12CCN(Cc1ccc(Oc3ccc(C(=O)O)cc3)cc1)CC2 | p24 / ELISA | - | BaL | EC90 | PBMC | 0.016 µM |
| COC(=O)N[C@H](C(=O)N[C@@H](Cc1ccccc1)[C@@H](O)CN(Cc1ccc(-c2ccccn2)cc1)NC(=O)[C@@H](NC(=O)OC)C(C)(C)C)C(C)(C)C | p24 / luminescence | L10F K20T D30N K45I A71V V77I | NL4-3 | EC50 | MT-4 | 19 µM |
| CNC(=O)[C@H](Cc1c[nH]c2ccccc12)NC(=O)OC[C@H]1O[C@@H](n2cc(C)c(=O)[nH]c2=O)C[C@@H]1N=[N+]=[N-] | XTT | - | LAI | EC50 | PBMC | 2.2 µM |
| Nc1nc(Cl)nc2c1ncn2[C@@H]1C[C@@H](F)[C@H](CO)O1 | cytopathic effect / MTT | - | - | EC50 | MT-4 | >10 µM |
| CC(=O)N(O)CCCCCNC(=O)CCC(=O)N(O)CCCCCNC(=O)CCC(=O)N(O)CCCCCN | p24 | - | BaL | EC50 | PBL | 8.5 µM |
| O=C1N(Cc2ccccc2)c2cscc2S(=O)(=O)N1Cc1ccccc1 | syncytia | - | HE | EC50 | MT-4 | 8.3 µM |
| CN[C@H]1CO[C@@H]2OCC[C@H](OC(=O)N[C@@H](Cc3cccc(OC)c3)[C@H](O)CN(CC(C)C)S(=O)(=O)c3ccc4nc(NC(C)C)sc4c3)[C@@H]21 | p24 / luminescence | L10I I15V K20R L24I V32I M36I M46I L63P K70Q V82A I84V L89M | NL4-3 | EC50 | MT-4 | 0.016 µM |
| COC(=O)[C@H](Cc1ccccc1)NP(=O)(O)OC[C@H]1O[C@@H](n2cc(C)c(=O)[nH]c2=O)C[C@@H]1N=[N+]=[N-] | XTT | - | LAI | EC50 | PBMC | 0.18 µM |
| Nc1ncnc2c1ncn2[C@H]1CC[C@@H](CO)O1 | RT activity | - | LAI | EC50 | CEM + CEM-SS | 1.5 µM |
| C#Cc1ccc(Nc2nccc(Oc3c(C)cc(-c4cn(-c5ccc(C(=O)O)cc5)nn4)cc3C)n2)cc1 | MTT | - | IIIB | EC50 | MT-4 | 0.065 µM |
| Nc1ccn([C@H]2CC[C@@H](CO)O2)c(=O)n1 | syncytia | - | - | EC50 | HeLa + HELA CD4+ | <0.1 µg/mL |
| CC(C)CN(C[C@@H](O)[C@H](Cc1ccccc1)NC(=O)O[C@H]1CCOC1)S(=O)(=O)c1ccc(N)cc1 | p24 / luminescence | L10I N37D G48V I54V L63P G73C I84V L90M | NL4-3 | EC50 | MT-4 | >1 µM |
| COC(=O)[C@H](Cc1c[nH]c2ccccc12)NC(=O)OC[C@H]1O[C@@H](n2cc(C)c(=O)[nH]c2=O)C[C@@H]1N=[N+]=[N-] | XTT | - | LAI | EC50 | PBMC | 10 µM |
| C#Cc1ccc(Nc2nccc(Oc3c(C)cc(-c4cn(Cc5ccc(C#N)cc5)nn4)cc3C)n2)cc1 | MTT | - | RES056 | EC50 | MT-4 | >7.18 µM |
| Cc1cn([C@H]2C[C@H](N=[N+]=[N-])[C@@H](CO)O2)c(=O)[nH]c1=O | cytopathic effect / XTT | RT-K65R | Site-directed mutant | EC50 | MT-2 | 0.182 µM |
| Cc1c(N)nc([C@H](CC(N)=O)NC[C@H](N)C(N)=O)nc1C(=O)N[C@H](C(=O)N[C@H](C)[C@@H](O)[C@H](C)C(=O)N[C@H](C(=O)NCCc1nc(-c2nc(C(=O)NCCC[S+](C)C)cs2)cs1)[C@@H](C)O)C(O[C@@H]1O[C@@H](CO)[C@@H](O)[C@H](O)[C@@H]1O[C@H]1O[C@H](CO)[C@@H](O)[C@H](OC(N)=O)[C@@H]1O)c1cnc[nH]1 | p24 | - | BaL | EC50 | PBL | 300 µM |
| Nc1nc(Cl)nc2c1ncn2[C@@H]1C[C@H](O)[C@H](CO)O1 | RT activity | - | - | EC50 | CEM + CEM-SS | >10 µM |
| CN[C@H]1CO[C@@H]2OCC[C@H](OC(=O)N[C@@H](Cc3ccccc3)[C@H](O)CN(CC(C)C)S(=O)(=O)c3ccc4nc(NC5CC5)sc4c3)[C@@H]21 | p24 / luminescence | L10F K20T D30N K45I A71V V77I | NL4-3 | EC50 | MT-4 | 0.0024 µM |
| O=C(O)P(=O)(O)O | p24 | RT-K65R | LAI | EC50 | MT-2 | 66.3 µM |
| C#Cc1ccc(Nc2nccc(Oc3c(C)cc(-c4cn(Cc5ccc(O)cc5)nn4)cc3C)n2)cc1 | MTT | - | RES056 | EC50 | MT-4 | >2.1 µM |
| CC(C)(C)C(=O)SCCOP(=O)(OCCSC(=O)C(C)(C)C)OC[C@@H]1CC[C@H](n2cnc3c(N)ncnc32)O1 | RT activity | - | LAI | EC50 | CEM + CEM-SS | 0.0002 µM |
| CNC(=O)[C@@H](Cc1c[nH]c2ccccc12)NC(=O)OC[C@H]1O[C@@H](n2cc(C)c(=O)[nH]c2=O)C[C@@H]1N=[N+]=[N-] | XTT | - | LAI | EC50 | PBMC | 4 µM |
| CC(C)CN(C[C@@H](O)[C@H](Cc1ccccc1)NC(=O)O[C@H]1CCO[C@H]2OCC[C@H]21)S(=O)(=O)c1ccc2nc(NC3CC3)sc2c1 | p24 / luminescence | L10F V32I L33F M46L I54M A71V | NL4-3 | EC50 | MT-4 | 0.0067 µM |
| CCCCCCCCCCCCCCCCCC(=O)OCC(CO)OC(=O)CCCCCCCCCCCCCCCCC | plaque count | - | LAI | EC50 | HT4 + HT4-6C | >1000 µM |
| Cc1ccc(C(=O)O[C@H]2CN3CC[C@H](O)[C@@H]3[C@@H](O)[C@@H]2O)cc1 | syncytia | - | GB8 | EC50 | JM | 5.8 µg/mL |
| C#Cc1ccc(Nc2nccc(Oc3c(C)cc(-c4cn(Cc5cccc(C(=O)OC)c5)nn4)cc3C)n2)cc1 | MTT | L100I | IIIB | EC50 | MT-4 | >4.78 µM |
| CCN1C(=O)N(Cc2cccc(Cl)c2)S(=O)(=O)c2cscc21 | syncytia | - | MN | EC50 | MT-4 | 0.8 µM |
| NS(=O)(=O)c1ccc(NC(=O)COc2ccc(Cl)cc2NS(=O)(=O)c2ccc(Cl)cc2)cc1 | syncytia | - | IIIB | EC50 | C8166 | 0.452 µM |
| CC(C)(C)NC(=O)[C@@H]1C[C@@H]2CCCC[C@@H]2CN1C[C@@H](O)[C@H](Cc1ccccc1)NC(=O)[C@H](CC(N)=O)NC(=O)c1ccc2ccccc2n1 | RT activity | - | RF | EC50 | CEM + CEM-SS | 0.008 µM |
| Cc1ccc(-c2ccc3c(c2)C=C(C(=O)Nc2ccc(C[N+](C)(C)C4CCOCC4)cc2)CCC3)cc1 | p24 / ELISA | - | BaL | EC50 | PBMC | 0.02 µM |
| N#CCN1C(=O)N(Cc2cccc(F)c2)S(=O)(=O)c2cscc21 | syncytia | RT-L100I | - | EC50 | CEM | 2.9 µM |
| C#Cc1ccc(Nc2nccc(Oc3c(C)cc(-c4cn(Cc5ccc(S(N)(=O)=O)cc5)nn4)cc3C)n2)cc1 | MTT | Y181C | IIIB | EC50 | MT-4 | 0.53 µM |
| Cc1cc(S(N)(=O)=O)ccc1NC(=O)COc1ccc(Cl)cc1NS(=O)(=O)c1ccc(Cl)cc1 | syncytia | - | IIIB | EC50 | C8166 | 1.607 µM |
| CCC(C)[C@H](NC(=O)[C@H](C(C)C)[C@@H](O)[C@H](O)[C@H](CC1CCCCC1)NC(=O)c1ccccc1SCCCCC[C@@H]1SC[C@@H]2NC(=O)NC21)C(=O)NCc1ccccn1 | p24 | - | IIIB | EC50 | H9 | 0.8 µM |
| COC(=O)[C@H](C)NP(=O)(OC[C@@H]1C=C[C@H](n2cc(C)c(=O)[nH]c2=O)O1)Oc1ccc(Br)cc1 | p24 | - | IIIB Subtype B | EC50 | PBMC | 0.0008 µM |
| Cc1cc(S(N)(=O)=O)ccc1NC(=O)COc1ccccc1NS(=O)(=O)c1ccc([N+](=O)[O-])cc1 | syncytia | - | IIIB | EC50 | C8166 | 9.519 µM |
| O=C(O[C@H]1CN2CC[C@H](O)[C@@H]2[C@@H](O)[C@@H]1O)c1ccccc1 | syncytia | - | GB8 | EC50 | JM | 1 µg/mL |
| Nc1nc2c(ncn2[C@H]2CO[C@@H](CO)O2)c(=O)[nH]1 | p24 | - | LAI | EC50 | MT-2 | 0.28 µM |
| Cc1cn([C@H]2C[C@H](N=[N+]=[N-])[C@@H](CO)O2)c(=O)[nH]c1=O | p24 | - | D34 | EC50 | PBMC | <0.04 µM |

For reference, 4 entries again:

smiles	method	mutations	strain or isolate	measure	cells	value
CC(C)(C)C(=O)SCCOP(=O)(OCCSC(=O)C(C)(C)C)OC[C@@H]1CC[C@H](n2cnc3c(N)ncnc32)O1	RT activity	-	LAI	EC50	CEM + CEM-SS	0.0002 µM
CCCCN1C(=O)[C@@H]([C@H](O)C2CCCCC2)NC(=O)C12CCN(Cc1ccc(Oc3ccc(C(=O)O)cc3)cc1)CC2	p24 / ELISA	-	BaL	EC90	PBMC	0.016 µM
CO[P@](=O)(c1cc(C)cc(/C=C/C#N)c1)c1c(C(N)=O)[nH]c2ccc(Cl)cc12	-	-	IIIB	EC50	MT-4	0.0005 µM
N#CCN1C(=O)N(Cc2cccc(F)c2)S(=O)(=O)c2cscc21	syncytia	RT-L100I	-	EC50	CEM	2.9 µM